pEC50: −log10 of the molar value.
What was measured:
Plasmodium falciparum [1] = test: In vitro antimalarial activity against Plasmodium falciparum; format: functional, organism-based
Plasmodium falciparum [2] = test: Antimalarial activity in vitro; format: functional, organism-based

CCCCC(CCCC)(OOC)OOC
pEC50 (Plasmodium falciparum [1]): 5.32

CCCCC1(CCCC)OOCCCOO1
pEC50 (Plasmodium falciparum [2]): 6.80

COOC1(OOC)CCC(C(C)(C)C)CC1
pEC50 (Plasmodium falciparum [1]): 4.60
